Compound potency records, mixed from different reports. Data source: NIAID ChemDB in PubChem.

Shared fields: whole-cell or culture tests; organism: Aspergillus flavus

MIC50, MIC90 and the like: level of inhibition, or share of isolates inhibited. An empty or dashed field is not shown. Lines come from different laboratories, so protocols vary. Two numbers with a dash give a range or band.

compound	method	endpoint	strain or isolate	conditions	result
C[C@H]1[C@H](O)[C@@H](C)/C=C/C=C/C=C/C=C/C=C/C=C/C=C/[C@H](O[C@@H]2O[C@H](C)[C@@H](O)[C@H](N)[C@@H]2O)C[C@@H]2O[C@](O)(C[C@@H](O)C[C@@H](O)CC[C@H](O)[C@@H](O)C[C@@H](O)CC(=O)O[C@H]1C)C[C@H](O)[C@H]2C(=O)O	visual reading	MFC	ATCC 11496		4 µg/mL
C[C@H]1[C@H](O)[C@@H](C)/C=C/C=C/C=C/C=C/C=C/C=C/C=C/[C@H](O[C@@H]2O[C@H](C)[C@@H](O)[C@H](N)[C@@H]2O)C[C@@H]2O[C@](O)(C[C@@H](O)C[C@@H](O)CC[C@H](O)[C@@H](O)C[C@@H](O)CC(=O)O[C@H]1C)C[C@H](O)[C@H]2C(=O)O	XTT	MIC	Clinical isolate		2 µg/mL
OC(Cn1cncn1)(Cn1cncn1)c1ccc(F)cc1F	agar	MIC	NCIM 539		5 µg/mL
O=c1c(/C=C/c2cccs2)n[nH]c(=S)n1NC=Nc1ccc(S(=O)(=O)Nc2ncccn2)cc1	agar	MIC90			146 µg/mL
Fc1ccc(Cc2nc(CN3CCc4sccc4C3)n[nH]2)cc1	agar	MIC	NCIM 539		15 µg/mL
CCC(C)n1ncn(-c2ccc(N3CCN(c4ccc(OC[C@H]5CO[C@](Cn6cncn6)(c6ccc(Cl)cc6Cl)O5)cc4)CC3)cc2)c1=O	broth dilution	MIC50			0.25 µg/mL
C[C@@H](c1ncncc1F)[C@](O)(Cn1cncn1)c1ccc(F)cc1F	broth dilution	MIC			0.25 µg/mL
COc1ccc(Cc2nc(CN3CCc4sccc4C3)n[nH]2)cc1	agar	MIC	NCIM 539		37.5 µg/mL
Cn1c(=O)c(-c2[nH][nH]c(=O)c2N=Nc2ccccc2Br)c(O)c2ccccc21		MIC	ATCC 28542		>100 µg/mL
CS(=O)(=O)N1CCC(n2cc(-c3nc(-c4ccccc4)n[nH]3)nn2)CC1	agar	MIC			30 µg/mL
Cc1cccc(CC(=O)Nc2nc(-c3cccc(F)c3)cs2)c1		MIC	NCIM 524		12.5 µg/mL
Cc1nc2c(s1)C(=O)C(Nc1ccc(C)c(C)c1)=C(Cl)C2=O	broth dilution	MIC	KCCM 11899		6.3 µg/mL
Cc1ccc(C2=NN(Cc3n[nH]c(=S)n3-c3ccccc3)C(=O)CC2)cc1		MIC			7 µg/mL
C[C@H]1[C@H](O)[C@@H](C)/C=C/C=C/C=C/C=C/C=C/C=C/C=C/[C@H](O[C@@H]2O[C@H](C)[C@@H](O)[C@H](N)[C@@H]2O)C[C@@H]2O[C@](O)(C[C@@H](O)C[C@@H](O)CC[C@H](O)[C@@H](O)C[C@@H](O)CC(=O)O[C@H]1C)C[C@H](O)[C@H]2C(=O)O	broth dilution / agar	MIC			20 µg/mL
Cc1ccc(C2=NN(Cc3n[nH]c(=S)n3-c3ccc(Cl)cc3)C(=O)CC2)cc1		MIC			7 µg/mL
COc1cc(O)c(C(=O)O[C@@H]2C[C@@]3(C)C2=C(C=O)[C@@H](O)[C@@H]2CC(C)(C)C[C@@H]23)c(C)c1Cl	broth dilution	MIC	Plpa59		>250 µg/mL
Cc1nc2c(s1)C(=O)C(Nc1ccc(C#N)cc1)=C(Cl)C2=O	broth dilution	MIC	KCCM 11899		6.3 µg/mL
CC1CCC2(OC1)OC1CC3C4CCC5C[C@@H](OC6OC(CO)C(OC7OC(CO)C(O)C(OC8CC(OC9OC(CO)C(O)C(O)C9O)C(O)C(CO)O8)C7OC7OC(CO)C(O)C(O)C7O)C(O)C6O)[C@H](O)C[C@]5(C)C4CC[C@]3(C)C1[C@@H]2C	broth dilution	MIC			30 µg/mL
Cc1ccc(-c2c(CN)c(=O)n3[nH]c(-c4ccc(Br)cc4)nc3c2CN)o1		MIC			100 µg/mL
COc1ccc(NC2=C(Cl)C(=O)c3nc(C)sc3C2=O)cc1	broth dilution	MIC	KCCM 11899		1.6 µg/mL
O=C1CCC(c2ccccc2)=NN1Cc1n[nH]c(=S)n1-c1ccc(Cl)cc1		MIC			5 µg/mL
O=C(c1ccc(Cl)cc1)N1CCC(n2cc(-c3nc(-c4ccccc4)n[nH]3)nn2)CC1	agar	MIC			>200 µg/mL
O=C1CCC(c2ccc(Cl)cc2)=NN1Cc1n[nH]c(=S)n1-c1ccc(Br)cc1		MIC			4 µg/mL
C[C@H]1[C@H](O)[C@@H](C)/C=C/C=C/C=C/C=C/C=C/C=C/C=C/[C@H](O[C@@H]2O[C@H](C)[C@@H](O)[C@H](N)[C@@H]2O)C[C@@H]2O[C@](O)(C[C@@H](O)C[C@@H](O)CC[C@H](O)[C@@H](O)C[C@@H](O)CC(=O)O[C@H]1C)C[C@H](O)[C@H]2C(=O)O	agar diffusion	MIC			22 µg/mL
C[C@H]1[C@H](O)[C@@H](C)/C=C/C=C/C=C/C=C/C=C/C=C/C=C/[C@H](O[C@@H]2O[C@H](C)[C@@H](O)[C@H](N)[C@@H]2O)C[C@@H]2O[C@](O)(C[C@@H](O)C[C@@H](O)CC[C@H](O)[C@@H](O)C[C@@H](O)CC(=O)O[C@H]1C)C[C@H](O)[C@H]2C(=O)O		MIC			20 µg/mL
C[C@H]1[C@H](O)[C@@H](C)/C=C/C=C/C=C/C=C/C=C/C=C/C=C/[C@H](O[C@@H]2O[C@H](C)[C@@H](O)[C@H](N)[C@@H]2O)C[C@@H]2O[C@](O)(C[C@@H](O)C[C@@H](O)CC[C@H](O)[C@@H](O)C[C@@H](O)CC(=O)O[C@H]1C)C[C@H](O)[C@H]2C(=O)O	broth dilution	MIC	22546		0.25 µg/mL
CC(C)C1C(=O)CC(c2ccccc2)N(C(=O)CCl)C1c1ccccc1		MIC			>200 µg/mL
O=C1CCC(c2ccc(Br)cc2)=NN1Cc1n[nH]c(=S)n1-c1ccccc1		MIC			10 µg/mL
Cn1c(=O)c(-c2[nH][nH]c(=O)c2C=Nc2ccc(N)cc2)c(O)c2ccccc21		MIC	ATCC 28542		50 µg/mL
Cc1ccccc1OCc1n[nH]c(=S)n1N1C(=O)CSC12CCc1ccccc12		MIC100			25 µg/mL
Cc1ccc(-c2c(CN)c(N)n(N)c(=O)c2CN)o1		MIC			1.56 µg/mL
Clc1cccc(-c2n[nH]c(CN3CCc4sccc4C3)n2)c1	agar	MIC	NCIM 539		100 µg/mL
CCC(C)CC(C)CCCCCCCCC(=O)N[C@H]1C[C@@H](O)[C@H](NCCN)NC(=O)[C@@H]2[C@@H](O)CCN2C(=O)[C@H]([C@H](O)CCN)NC(=O)[C@H]([C@H](O)[C@@H](O)c2ccc(O)cc2)NC(=O)[C@@H]2C[C@@H](O)CN2C(=O)[C@H]([C@@H](C)O)NC1=O	broth dilution	MIC	CBS 625.66		128 µg/mL
COc1ccc(-c2n[nH]c(-c3cn(C4CCN(C)CC4)nn3)n2)cc1	agar	MIC			40 µg/mL
COc1ccc(/C=c2\c(=O)[nH][nH]\c2=C2/C(=O)c3ccccc3N(C)C2=O)cc1OC		MIC	ATCC 28542		>100 µg/mL
c1ccc(N2CCC(n3cc(CN4CCc5sccc5C4)nn3)CC2)cc1	agar	MIC	NCIM 539		60 µg/mL
Cc1nc2c(s1)C(=O)C(Nc1cccc(F)c1)=C(Cl)C2=O	broth dilution	MIC	KCCM 11899		25 µg/mL
c1ccc(-c2n[nH]c(CN3CCc4sccc4C3)n2)cc1	agar	MIC	NCIM 539		>200 µg/mL
O=C1CCC(c2ccc(Br)cc2)=NN1Cc1n[nH]c(=S)n1-c1ccc(Cl)cc1		MIC			8 µg/mL
Cc1ccc(OCC(=O)Nc2nc(-c3cccc(F)c3)cs2)cc1C		MIC	NCIM 524		100 µg/mL
O=C1CSC2(CCc3ccccc32)N1n1c(COc2ccc(Cl)cc2Cl)n[nH]c1=S		MIC100			12.5 µg/mL
Cc1nc2c(s1)C(=O)C(Nc1ccc(I)cc1)=C(Cl)C2=O	broth dilution	MIC	KCCM 11899		6.3 µg/mL
CCCCCCCCOC(=O)[C@]1(O)C[C@@H](O)[C@@H](O)[C@H](OC(=O)/C=C/c2ccc(O)c(O)c2)C1	absorbance	MIC80	AMP 9		2700 µM
COc1cccc(/C=c2\c(=O)[nH][nH]\c2=C2/C(=O)c3ccccc3N(C)C2=O)c1		MIC	ATCC 28542		>100 µg/mL
Cc1cc(O)cc(O)c1C(=O)O[C@@H]1C[C@]2(C)[C@@H]3[C@H](C=C(C=O)[C@]12O)CC(C)(C)[C@@H]3O	broth dilution	MIC	Plpa59		>250 µg/mL
Cc1ccc(CC(=O)Nc2nc(-c3cccc(Cl)c3)cs2)cc1		MIC	NCIM 524		6.25 µg/mL
C=C1CO[C@H]2[C@@H](C)OC(OC[C@@]34C[C@H]5[C@H](C)CC[C@@H]5[C@@]5(C=O)C[C@@H]3C=C(C(C)C)[C@@]45C(=O)O)C[C@@H]12		MIC			4–16 µg/mL
CCC(C)CC(C)CCCCCCCCC(=O)N[C@H]1C[C@@H](O)[C@H](NCCN)NC(=O)[C@@H]2[C@@H](O)CCN2C(=O)[C@H]([C@H](O)CCN)NC(=O)[C@H]([C@H](O)[C@@H](O)c2ccc(O)cc2)NC(=O)[C@@H]2C[C@@H](O)CN2C(=O)[C@H]([C@@H](C)O)NC1=O		MIC			0.09–3.12 µg/mL
O=C1CSC2(CCc3ccccc32)N1n1c(COc2ccc(Cl)cc2)n[nH]c1=S		MIC100			12.5 µg/mL
COC(=O)c1c(N)oc2c1cc(O)c1sc(C)nc12	broth dilution	MIC	KCCM 11899		50 µg/mL
C[C@H]1[C@H](O)[C@@H](C)/C=C/C=C/C=C/C=C/C=C/C=C/C=C/[C@H](O[C@@H]2O[C@H](C)[C@@H](O)[C@H](N)[C@@H]2O)C[C@@H]2O[C@](O)(C[C@@H](O)C[C@@H](O)CC[C@H](O)[C@@H](O)C[C@@H](O)CC(=O)O[C@H]1C)C[C@H](O)[C@H]2C(=O)O	agar diffusion / agar	MIC			20 µg/mL
COC(=O)Cc1csc(NC(=O)Cc2cccc(OC)c2)n1		MIC	NCIM 524		12.5 µg/mL
C[C@H]1[C@H](O)[C@@H](C)/C=C/C=C/C=C/C=C/C=C/C=C/C=C/[C@H](O[C@@H]2O[C@H](C)[C@@H](O)[C@H](N)[C@@H]2O)C[C@@H]2O[C@](O)(C[C@@H](O)C[C@@H](O)CC[C@H](O)[C@@H](O)C[C@@H](O)CC(=O)O[C@H]1C)C[C@H](O)[C@H]2C(=O)O	broth dilution	MIC	NBRC 4295	48 h	4 µg/mL
Cc1cccc(CC(=O)Nc2nc(C)cs2)c1		MIC	NCIM 524		12.5 µg/mL
Cc1nc2c(s1)C(=O)C(Nc1ccccc1)=C(Cl)C2=O	broth dilution	MIC	KCCM 11899		12.5 µg/mL
Cc1ccc(OCc2n[nH]c(=S)n2N2C(=O)CSC23CCc2ccccc23)cc1		MIC100			12.5 µg/mL
C[C@@H]1C/C=C/C=C/C=C/C=C/[C@H](OC2O[C@H](C)[C@@H](O)[C@H](N)[C@@H]2O)CC2O[C@](O)(C[C@@H](O)C[C@H]3O[C@@H]3/C=C/C(=O)O1)C[C@H](O)[C@H]2C(=O)O	broth dilution	MIC	Clinical isolates		8–32 µg/mL
CC(=O)N1CCN(c2ccc(OC[C@H]3CO[C@](Cn4ccnc4)(c4ccc(Cl)cc4Cl)O3)cc2)CC1		MIC90	Species complex		1 µg/mL
Cn1c(=O)c(-c2[nH][nH]c(=O)c2N=Nc2ccc(Cl)cc2)c(O)c2ccccc21		MIC	ATCC 28542		>100 µg/mL

Repeating the final 5 entries:

{"compound": "Cc1nc2c(s1)C(=O)C(Nc1ccccc1)=C(Cl)C2=O", "method": "broth dilution", "endpoint": "MIC", "strain or isolate": "KCCM 11899", "result": "12.5 µg/mL"}
{"compound": "Cc1ccc(OCc2n[nH]c(=S)n2N2C(=O)CSC23CCc2ccccc23)cc1", "endpoint": "MIC100", "result": "12.5 µg/mL"}
{"compound": "C[C@@H]1C/C=C/C=C/C=C/C=C/[C@H](OC2O[C@H](C)[C@@H](O)[C@H](N)[C@@H]2O)CC2O[C@](O)(C[C@@H](O)C[C@H]3O[C@@H]3/C=C/C(=O)O1)C[C@H](O)[C@H]2C(=O)O", "method": "broth dilution", "endpoint": "MIC", "strain or isolate": "Clinical isolates", "result": "8–32 µg/mL"}
{"compound": "CC(=O)N1CCN(c2ccc(OC[C@H]3CO[C@](Cn4ccnc4)(c4ccc(Cl)cc4Cl)O3)cc2)CC1", "endpoint": "MIC90", "strain or isolate": "Species complex", "result": "1 µg/mL"}
{"compound": "Cn1c(=O)c(-c2[nH][nH]c(=O)c2N=Nc2ccc(Cl)cc2)c(O)c2ccccc21", "endpoint": "MIC", "strain or isolate": "ATCC 28542", "result": ">100 µg/mL"}